# Sequence variants of PSTVd loop 15 after infection

Data from the supplement of Wu et al. 2024, doi:10.1371/journal.ppat.1012142.

The pool varies loop 15 of the PSTVd intermediate strain in the pattern GGAAACCGNNNNNNC; wild type is GGAAACCGCUACUAC (upper and lower strand joined, each 5' to 3', the first 7 letters being the upper strand, closing pairs included).

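Three N. benthamiana plants were inoculated with the whole mutant pool. Samples came from the inoculated region at 5 days, the leaf margin at 10 and upper systemic leaves at 12.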

Numbers give reads per thousand; 0 = not seen among the reads, higher = more abundant. Each site shows the three plants. "Pool" is the share in the plasmid pool used as inoculum, on the same scale. The inoculated region was read from the minus strand, the other sites from the plus strand. IR is the inoculated region, LM the leaf margin, Sys the systemic leaves.

sequence	pool	IR	LM	Sys
GGAAACCGCUGGCGC	0.224	0.0819 / 0.0643 / 0.0952	0 / 0.0223 / 0	0.0161 / 0 / 0
GGAAACCGCUGGCUC	0.304	0.0491 / 0.161 / 0.0381	0 / 0 / 0.0401	0 / 0 / 0
GGAAACCGCUGGGAC	0.192	0.115 / 0.145 / 0.0762	0 / 0.0223 / 0.0200	0 / 0 / 0
GGAAACCGCUGGGCC	0.112	0.0655 / 0.0482 / 0.0190	0.0162 / 0.0223 / 0	0.0161 / 0 / 0
GGAAACCGCUGGGGC	0.256	0.147 / 0.0643 / 0.0571	0.0162 / 0.0223 / 0.0200	0 / 0 / 0
GGAAACCGCUGGGUC	0.288	0.0655 / 0.0964 / 0.152	0 / 0 / 0	0.0161 / 0 / 0
GGAAACCGCUGGUAC	0.176	0.213 / 0.241 / 0.248	0.0647 / 0.111 / 0.140	0.0483 / 0.0303 / 0.0912
GGAAACCGCUGGUCC	0.224	0.147 / 0.0964 / 0.114	0 / 0.0223 / 0.0401	0 / 0 / 0
GGAAACCGCUGGUGC	0.144	0.278 / 0.402 / 0.438	0.129 / 0.111 / 0.0200	0.0644 / 0 / 0
GGAAACCGCUGGUUC	0.288	0.262 / 0.273 / 0.362	0.0808 / 0.0445 / 0.220	0.0161 / 0.0605 / 0.0456
GGAAACCGCUGUAAC	0.192	0.0655 / 0.0482 / 0.133	0 / 0.0223 / 0.0200	0 / 0 / 0
GGAAACCGCUGUACC	0.192	0.0983 / 0.0803 / 0.171	0 / 0.0223 / 0	0 / 0 / 0
GGAAACCGCUGUAGC	0.176	0.0819 / 0.112 / 0.0571	0 / 0 / 0.0200	0 / 0 / 0
GGAAACCGCUGUAUC	0.192	0.147 / 0.0803 / 0.0762	0 / 0 / 0	0 / 0 / 0
GGAAACCGCUGUCAC	0.144	0.115 / 0.0482 / 0.0952	0 / 0.0223 / 0.0401	0 / 0 / 0
GGAAACCGCUGUCCC	0.304	0.0328 / 0.0482 / 0.114	0 / 0 / 0.0200	0 / 0 / 0
GGAAACCGCUGUCGC	0.288	0.0655 / 0.0643 / 0.0571	0 / 0.0223 / 0.0200	0 / 0 / 0
GGAAACCGCUGUCUC	0.288	0.115 / 0.0482 / 0.0952	0 / 0 / 0.0200	0.0161 / 0 / 0
GGAAACCGCUGUGAC	0.144	0.164 / 0.0482 / 0.133	0.0162 / 0.0223 / 0	0 / 0 / 0
GGAAACCGCUGUGCC	0.144	0.0819 / 0.0803 / 0.133	0 / 0 / 0	0 / 0 / 0
GGAAACCGCUGUGGC	0.192	0.115 / 0.129 / 0.114	0.0162 / 0 / 0	0.0161 / 0 / 0.0228
GGAAACCGCUGUGUC	0.336	0.0655 / 0.0964 / 0.0571	0 / 0 / 0.0200	0 / 0 / 0
GGAAACCGCUGUUAC	0.272	0.377 / 0.241 / 0.267	0.146 / 0.0668 / 0.180	0.0483 / 0 / 0
GGAAACCGCUGUUCC	0.272	0.0328 / 0.129 / 0.133	0.0323 / 0 / 0.0200	0 / 0 / 0
GGAAACCGCUGUUGC	0.304	0.0328 / 0.0321 / 0.114	0 / 0.0223 / 0.0401	0 / 0 / 0
GGAAACCGCUGUUUC	0.176	0.0491 / 0.0482 / 0.133	0 / 0.0223 / 0	0 / 0 / 0
GGAAACCGCUUAAAC	0.208	0.180 / 0.0964 / 0.0571	0.0323 / 0 / 0	0 / 0 / 0
GGAAACCGCUUAACC	0.128	0.147 / 0.129 / 0.0762	0 / 0 / 0	0 / 0 / 0
GGAAACCGCUUAAGC	0.224	0.147 / 0.112 / 0.152	0 / 0.0223 / 0.0601	0.0161 / 0 / 0
GGAAACCGCUUAAUC	0.128	0.0819 / 0.0964 / 0.133	0.0162 / 0.0223 / 0	0 / 0 / 0
GGAAACCGCUUACAC	0.240	0.0983 / 0.0964 / 0.152	0 / 0 / 0.0401	0 / 0 / 0.0228
GGAAACCGCUUACCC	0.352	0.147 / 0.0964 / 0.114	0 / 0 / 0	0 / 0 / 0
GGAAACCGCUUACGC	0.160	0.0983 / 0.0964 / 0.190	0 / 0 / 0.0401	0 / 0 / 0
GGAAACCGCUUACUC	0.144	0.147 / 0.112 / 0.0571	0 / 0 / 0.0200	0 / 0 / 0
GGAAACCGCUUAGAC	0.240	0.147 / 0.0803 / 0.0571	0.0162 / 0 / 0	0.0161 / 0 / 0
GGAAACCGCUUAGCC	0.192	0.115 / 0.161 / 0.190	0.0162 / 0.0223 / 0	0.0322 / 0 / 0
GGAAACCGCUUAGGC	0.160	0.115 / 0.0964 / 0.0571	0 / 0 / 0	0 / 0 / 0
GGAAACCGCUUAGUC	0.160	0.0164 / 0.0964 / 0.152	0.0162 / 0 / 0.0401	0 / 0 / 0
GGAAACCGCUUAUAC	0.240	0.393 / 0.241 / 0.305	0.129 / 0.111 / 0.100	0.0644 / 0 / 0.137
GGAAACCGCUUAUCC	0.208	0.115 / 0.161 / 0.171	0.0162 / 0 / 0	0 / 0 / 0
GGAAACCGCUUAUGC	0.256	0.197 / 0.225 / 0.209	0 / 0.0223 / 0.0200	0.0161 / 0 / 0
GGAAACCGCUUAUUC	0.304	0.459 / 0.546 / 0.476	0.0970 / 0.0223 / 0.120	0.0322 / 0 / 1.28
GGAAACCGCUUCAAC	0.176	0.115 / 0.0803 / 0.152	0 / 0.0223 / 0.0401	0.0322 / 0 / 0
GGAAACCGCUUCACC	0.224	0.0655 / 0.0643 / 0.152	0 / 0.0223 / 0	0 / 0 / 0
GGAAACCGCUUCAGC	0.160	0.147 / 0.0643 / 0.0571	0.0323 / 0 / 0.0200	0 / 0 / 0
GGAAACCGCUUCAUC	0.208	0.0328 / 0.161 / 0	0.0323 / 0 / 0.0200	0 / 0 / 0
GGAAACCGCUUCCAC	0.144	0.147 / 0.0803 / 0.114	0 / 0 / 0.0200	0 / 0 / 0
GGAAACCGCUUCCCC	0.128	0.0819 / 0.129 / 0.0762	0.0162 / 0 / 0	0 / 0 / 0
GGAAACCGCUUCCGC	0.208	0.0655 / 0.145 / 0.171	0.0162 / 0.0223 / 0.0200	0 / 0 / 0
GGAAACCGCUUCCUC	0.112	0.147 / 0.177 / 0.0952	0.0162 / 0 / 0.0401	0 / 0 / 0
GGAAACCGCUUCGAC	0.240	0.0655 / 0.112 / 0.152	0.0162 / 0.0223 / 0.0200	0 / 0 / 0
GGAAACCGCUUCGCC	0.272	0.0655 / 0.129 / 0.133	0.0323 / 0 / 0	0 / 0 / 0
GGAAACCGCUUCGGC	0.368	0.0655 / 0.0964 / 0.0952	0.0323 / 0 / 0.0200	0 / 0 / 0
GGAAACCGCUUCGUC	0.192	0.0819 / 0.145 / 0.0762	0 / 0 / 0.0200	0 / 0 / 0
GGAAACCGCUUCUAC	0.768	0.655 / 0.691 / 0.781	0.550 / 0.334 / 0.280	0.531 / 0.257 / 0.0912
GGAAACCGCUUCUCC	0.144	0.164 / 0.0964 / 0.0952	0.0162 / 0 / 0.0200	0 / 0 / 0
GGAAACCGCUUCUGC	0.272	0.0655 / 0.0964 / 0.0381	0 / 0 / 0	0 / 0 / 0
GGAAACCGCUUCUUC	0.192	0.164 / 0.161 / 0.152	0 / 0 / 0.0200	0 / 0 / 0
GGAAACCGCUUGAAC	0.272	0.0983 / 0.129 / 0.0381	0 / 0 / 0.0401	0.0161 / 0 / 0.0228
GGAAACCGCUUGACC	0.320	0.0164 / 0.129 / 0.0571	0 / 0 / 0	0 / 0 / 0
GGAAACCGCUUGAGC	0.240	0.0983 / 0.129 / 0.0571	0 / 0 / 0	0.0161 / 0 / 0

The last 3 entries again:

sequence	pool	IR	LM	Sys
GGAAACCGCUUGAAC	0.272	0.0983 / 0.129 / 0.0381	0 / 0 / 0.0401	0.0161 / 0 / 0.0228
GGAAACCGCUUGACC	0.320	0.0164 / 0.129 / 0.0571	0 / 0 / 0	0 / 0 / 0
GGAAACCGCUUGAGC	0.240	0.0983 / 0.129 / 0.0571	0 / 0 / 0	0.0161 / 0 / 0

Sequences that differ at fixed positions probably stem from PCR or sequencing errors, and defective variants can be carried along by functional ones. With 43,870-66,106 reads a sample, very low values are single reads. For reference, wild type rose from 33.9 per thousand in the pool to 202, 200, 159 (inoculated region), 724, 746, 710 (leaf margin) and 856, 883, 880 (systemic leaves).